## HIV-1 5' UTR: effect of mutations on RNA dimer formation

Data from the supplement of Ye et al. 2022, doi:10.1038/s41594-022-00746-2.

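Mutant RNA libraries with 1G, 2G or 3G starts, with or without cap, were folded at 37 °C for 30 min. High salt was 300 mM KCl and 5 mM MgCl2, low salt 40 mM KCl and 0.1 mM MgCl2; monomer and dimer were parted on a native gel. Mutation frequencies in the two bands give Kdimer.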

RNA: 5' end of the HIV-1 NL4-3 genome, made in vitro. Positions 1-437 read:
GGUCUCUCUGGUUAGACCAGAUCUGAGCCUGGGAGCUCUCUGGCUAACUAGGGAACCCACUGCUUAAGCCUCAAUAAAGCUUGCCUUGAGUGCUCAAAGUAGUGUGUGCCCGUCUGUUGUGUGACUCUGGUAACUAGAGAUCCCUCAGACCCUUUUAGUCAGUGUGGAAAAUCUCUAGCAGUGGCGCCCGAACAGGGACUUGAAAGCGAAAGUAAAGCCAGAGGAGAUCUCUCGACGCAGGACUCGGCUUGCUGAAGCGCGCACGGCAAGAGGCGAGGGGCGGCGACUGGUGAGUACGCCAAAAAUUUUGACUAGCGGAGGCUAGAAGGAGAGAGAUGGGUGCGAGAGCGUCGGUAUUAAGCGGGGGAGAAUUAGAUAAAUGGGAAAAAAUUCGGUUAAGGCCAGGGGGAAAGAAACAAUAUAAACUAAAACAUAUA

Values are log2 Kdimer, the median over the changes at each position: higher means that changes there hinder dimer formation, below 0 that they favour it. One numbering serves 1G, 2G and 3G. A position is written with its base where known. Bases beyond 437 are not listed in the source.

position	1G capped low-salt	2G uncapped low-salt	2G uncapped high-salt	3G uncapped low-salt
A271	-0.40	-0.23	-0.05	-0.15
U313	1.23	1.70	1.26	1.42
A370	-0.01	0.14	0.13	0.06
G348	-0.46	-0.24	-0.37	0.26
C316	0.32	0.62	0.05	0.80
G116	-0.35	-0.33	0.22	-0.48
U128	0.37	0.64	0.31	0.85
G25	-0.61	-0.57	-0.45	-0.05
A376	-0.19	0.06	0.05	-0.17
G329	0.03	-0.03	0.25	0.17
G292	-0.31	-0.38	-0.17	-0.22
G31	-0.21	-0.04	0.26	-0.09
U65	0.16	0.44	0.15	0.15
U182	0.23	-0.09	0.01	0.78
497	0.07	-0.05	0.01	-0.04
U153	0.06	0.00	-0.07	0.10
G320	-0.19	-0.24	-0.07	-0.12
U154	-0.03	0.10	0.16	0.01
A204	-0.06	-0.07	0.18	0.18
450	0.01	0.04	0.09	-0.18
A77	0.11	0.04	0.11	0.10
G237	0.75	0.78	0.72	0.90
A214	0.02	0.00	0.06	-0.03
A136	0.02	-0.13	0.23	-0.17
U351	0.10	0.10	0.09	0.03
G405	-0.16	-0.05	-0.06	0.01
G129	0.56	0.83	0.37	1.03
C160	-0.40	-0.24	0.03	-0.26
U126	0.30	0.26	0.02	0.89
G384	-0.13	-0.12	-0.16	0.06
U391	-0.01	0.05	0.02	0.07
A425	-0.01	0.09	0.14	0.10

4 of these entries, quoted again:

* A370 -> 1G capped low-salt -0.01; 2G uncapped low-salt 0.14; 2G uncapped high-salt 0.13; 3G uncapped low-salt 0.06
* A214 -> 1G capped low-salt 0.02; 2G uncapped low-salt 0.00; 2G uncapped high-salt 0.06; 3G uncapped low-salt -0.03
* G405 -> 1G capped low-salt -0.16; 2G uncapped low-salt -0.05; 2G uncapped high-salt -0.06; 3G uncapped low-salt 0.01
* G292 -> 1G capped low-salt -0.31; 2G uncapped low-salt -0.38; 2G uncapped high-salt -0.17; 3G uncapped low-salt -0.22